Anti-infective test results gathered from many reports (values: NIAID ChemDB through PubChem).

Shared fields: whole-cell or culture tests; organism: Mycobacterium tuberculosis

Neighbouring rows are from separate reports. ECn is the concentration giving n% inhibition of infection, replication or growth. MIC bound: limit read from a one-dose screen. Blank or dashed fields: not listed here. Percent inhibition refers to the dose given; in toxicity tests it is the harm to the cells. MIC50, MIC90 and the like: level of inhibition, or share of isolates inhibited. Two numbers with a dash give a range or band.

structure,read by,dose,conditions,cell line,strain,endpoint,mutations,value
Cc1c(C(=O)c2ccccc2)[n+](=O)c2cc(Cl)ccc2n1[O-],BACTEC,,,VERO,H37Rv,MIC,,3.13 µg/mL
CCN=c1cc2oc3cc(NCC)c(C)cc3c(-c3ccccc3C(=O)OCC)c-2cc1C,BACTEC,12.5 µg/mL,,,H37Rv,inhibition,,81%
CC(=O)c1c(CN2CCN(c3ccccc3C)CC2)n([O-])c2ccccc2[n+]1=O,BACTEC,6.25 µg/mL,,,H37Rv,inhibition,,0%
CC(C)(C)c1cc(C(C)(C)C)c2oc(-c3ccc(Br)cc3)nc2c1,,,,,H37Rv,MIC,,>128 µg/mL
Cc1ccc2c(Cl)c(C)c(N3CCCCC3)nc2n1,BACTEC,6.25 µg/mL,,,H37Rv,inhibition,,17%
Cc1ccc2c(c1)[n+](=O)c(C(=O)c1ccccc1)c(C)n2[O-],BACTEC,,,VERO,H37Rv,EC50,,>6.25 µg/mL
Nc1ccc2oc3cccc(N)c3c(=O)c2c1,BACTEC,,,,H37Rv,MIC bound,,>12.5 µg/mL
Nc1ccc(C(=O)Oc2ccccc2)c(O)c1,,,,,H37Rv,MIC,,0.005 µg/mL
Cn1cc2c(c1-c1ccccc1)[n+](=O)c1ccccc1n2[O-],resazurin,,,,H37Rv,MIC,,>6.25 µg/mL
CCn1cc(C(=O)O)c(=O)c2ccc(C)nc21,,,,,H37Rv,MIC90,gyrA mutation D94G gyrB mutation D500N,>50 µM
Cc1ccc(-c2nc3cc(C(C)(C)C)cc(C(C)(C)C)c3o2)o1,BACTEC,6.25 µg/mL,,,H37Rv,inhibition,,<90%
NNC(=O)c1ccncc1,,,,,H37Rv,MBC,,0.05 µg/mL
COc1cccc2cc(-c3cn4ccc(C)cc4n3)c(=O)oc12,BACTEC,6.25 µg/mL,,,H37Rv,inhibition,,8%
CCCCCCCCCCC[C@@H]1CCC[C@@H](C)N1,,,,,EMB-R,MIC,,6.4 µg/mL
CO[C@H]1/C=C/O[C@@]2(C)Oc3c(C)c(O)c4c(O)c(c(/C=N/N5CCN(C)CC5)c(O)c4c3C2=O)NC(=O)/C(C)=C\C=C\[C@H](C)[C@H](O)[C@@H](C)[C@@H](O)[C@@H](C)[C@H](OC(C)=O)[C@@H]1C,,,,,Isolate N,MIC,,>2 µg/mL
CC(C)(C)c1cc(C(C)(C)C)c2oc(/C=C/c3ccccc3)nc2c1,BACTEC,,,,H37Rv,MIC,,3.13 µg/mL
Cc1ccc2c(Cl)c(Cc3ccccc3)c(Cl)nc2n1,BACTEC,,,,H37Rv,EC50,,<6.25 µg/mL
CO[C@H]1/C=C/O[C@@]2(C)Oc3c(C)c(O)c4c(=O)c(c5oc6cc(N7CCN(CC(C)C)CC7)cc(=O)c6nc5c4c3=C2O)NC(=O)/C(C)=C\C=C\[C@H](C)[C@H](O)[C@@H](C)[C@@H](O)[C@@H](C)[C@H](OC(C)=O)[C@@H]1C,,,,,30 isolates,MIC90,,2 µg/mL
O=c1oc2ccc(Br)cc2cc1-c1cn2ccccc2n1,BACTEC,,,,H37Rv,MIC,,>6.25 µg/mL
CC(C)(C)c1cc(C(C)(C)C)c2oc(-c3ccccc3O)nc2c1,BACTEC,,,,H37Rv,MIC,,>6.25 µg/mL
Cc1ccc2c(N3CCCCC3)c(Cc3ccccc3)c(N3CCCCC3)nc2n1,BACTEC,6.25 µg/mL,,,H37Rv,inhibition,,96%
COc1ccc2c(c1)[n+](=O)c(C(C)=O)c(C)n2[O-],,,inside macrophages,,H37Rv,EC50,,<6.7 µg/mL
Nc1nnc2nc(CC(=O)c3ccccc3)c(=O)[nH]n12,BACTEC,,,,H37Rv,MIC bound,,>12.5 µg/mL
COc1ccc(CCc2cc(OC)c3ccccc3n2)cc1OC,,,,,MT2,MIC,,25 µg/mL
CC1S(=O)(=O)O[Si](C)(C)CC[Si](C)(C)OS1(=O)=O,BACTEC,,,,H37Rv,MIC,,≥12.5 µg/mL
O=c1[nH]c2c(Cl)c(Cl)ccc2c(O)c1N=Nc1ccccc1,resazurin,,,,H37Rv,MIC,,<6.25 µg/mL
CC1COc2c(N3CCN(C(N)=NC#N)CC3)c(F)cc3c(=O)c(C(=O)O)cn1c23,broth dilution,,,,H27Rv,MIC,,0.312 µg/mL
COc1ccc2c(c1)[n+](=O)c(C(=O)c1ccccc1)c(C)n2[O-],BACTEC,,,,H37Rv,EC50,,>6.25 µg/mL
C=C1C(=O)O[C@H]2/C=C(/C)[C@H](O)/C=C\[C@@](C)(O)C[C@H](OC(=O)/C(C)=C\C)[C@H]12,BACTEC,,,,H37Rv,MIC bound,,>12.5 µg/mL
Cc1ccc2c(Cl)c(C)c(N3CCOCC3)nc2n1,BACTEC,,,,H37Rv,EC50,,>6.25 µg/mL
O=c1oc2ccccc2cc1-c1cs/c(=N/N=C/c2ccc(Cl)cc2)n1C1CCCCC1,,12.5 µg/mL,,,H37Rv,inhibition,,75%
Clc1ccc2c(N3CCCCC3)cc(N3CCOCC3)nc2n1,BACTEC,,,,H37Rv,EC50,,>6.25 µg/mL
Nc1ccc(C(=O)OCc2ccccc2)c(O)c1,,,,,H37Rv (p-aminosalicylate-resistant),MIC,,100 µg/mL
C[C@H]1COc2c(N3CCN(C)CC3)c(F)cc3c(=O)c(C(=O)O)cn1c23,,,,,37 strains (drug-resistant),MIC50,,1 µg/mL
O=C(CCC(=O)c1cccs1)NC[C@H]1CN(c2ccc(-n3cncn3)c(F)c2)C(=O)O1,,,,,10 clinical isolates resistant,MIC,,2–4 µg/mL
O=C(CC(=O)N1N=C(N(c2ccccc2)c2ccccc2)CC1c1ccccc1)Nc1ccccc1Cl,BACTEC,12.5 µg/mL,,,H37Rv,inhibition,,0%
CC(C)(C)c1cc(C(C)(C)C)c2oc(-c3ccc(Cl)cc3)nc2c1,BACTEC,6.25 µg/mL,,,H37Rv,inhibition,,<90%
NNC(=O)c1ccncc1,,,,,PR146,MIC,,2.5 µg/mL
COc1ccccc1OC(=O)c1ccc(N)cc1O,,,,,Frankfurt,MIC,,0.05 µg/mL
Cc1ccn2cc(-c3cc4cc(Cl)ccc4oc3=O)nc2c1,BACTEC,,,,H37Rv,MIC,,>6.25 µg/mL
O=c1[nH]c2cc([N+](=O)[O-])ccc2c(O)c1N=Nc1ccccc1-c1ccccc1,resazurin,,,,H37Rv,MIC,,<6.25 µg/mL
Cc1ccc(S(=O)(=O)NNC(=O)c2cc(C)c(C)cc2N)cc1,BACTEC,12.5 µg/mL,,,H37Rv,inhibition,,13%
CNC(=O)CSc1nc(N)c2c3c(sc2n1)CC(C(C)(C)C)CC3,MTT / visual reading,,,,H37Rv,MIC,,>200 µg/mL
Cc1ccc(NC(=O)NNC(=O)CNC(=O)Nc2n[nH]c(=S)s2)c(C)c1,BACTEC,12.5 µg/mL,,,H37Rv,inhibition,,6%
CC(=O)c1c(CN2CCN(c3ccc([N+](=O)[O-])cc3)CC2)n([O-])c2ccccc2[n+]1=O,BACTEC,6.25 µg/mL,,,H37Rv,inhibition,,0%
CCn1c(-c2cc3ccccc3oc2=O)cs/c1=N\N=C\c1ccc(Cl)cc1,,12.5 µg/mL,,,H37Rv,inhibition,,24%
CC(C)(C)c1cc(C(C)(C)C)c2oc(-c3ccccc3Br)nc2c1,BACTEC,6.25 µg/mL,,,H37Rv,inhibition,,99%
CC1(C)Nc2cccc3c(N=Nc4ccc(N=Nc5ccccc5)c5ccccc45)ccc(c23)N1,BACTEC,128 µg/mL,,,H37Rv,inhibition,,99%
Cc1ccn2cc(-c3cc4cc(Cl)cc(Cl)c4oc3=O)nc2c1,BACTEC,,,,H37Rv,MIC,,>6.25 µg/mL
C=CCn1c(-c2cc3ccccc3oc2=O)cs/c1=N\N=C\c1ccc(O)c(OCC)c1,,,,,H37Rv,MIC,,>12.5 µg/mL
O=C(CCC(=O)c1ccccc1)NC[C@H]1CN(c2ccc(-n3cncn3)c(F)c2)C(=O)O1,,,,,ATCC 27294,MIC,,1 µg/mL
CC1(C)N=C(N)N=C(N)N1c1ccc(CCC(=O)Nc2ccc(S(=O)(=O)F)cc2)c(Cl)c1.CCS(=O)(=O)O,BACTEC,12.5 µg/mL,,,H37Rv,inhibition,,40%
NC(=O)c1cnccn1,,,,,Isolate 98-34,MIC,,900 µg/mL
C/C=C/C=C1\OC(C)=C(C(C)=O)C1=O,BACTEC,,,,H37Rv,MIC bound,,>12.5 µg/mL
CCC(C)OC(=O)CSc1nc(N)c2c3c(sc2n1)CC(C(C)(C)C)CC3,MTT / visual reading,,,,H37Rv,MIC,,1.5 µg/mL
COc1ccc(CCC2CCc3ccccc3N2C)cc1OC,,,,,MT2,MIC,,>322 µg/mL
CC(C)(C)C1CCc2c(sc3nc(SCC(=O)O)nc(N)c23)C1,MTT / visual reading,,,,H37Rv,MIC,,>200 µg/mL
CC(C)=CCC1C(=O)C(CC=C(C)C)(CC=C(C)C)C(O)C(C(=O)C(C)C)C1O,,,,,Isolate L,MIC,,55.8 µg/mL
Cc1c(C(=O)c2ccccc2)[n+](=O)c2ccccc2n1[O-],BACTEC,,,VERO,H37Rv,EC50,,<6.25 µg/mL
O=c1[nH]c2c([N+](=O)[O-])cccc2c(O)c1N=Nc1ccccc1-c1ccccc1,resazurin,,,,H37Rv,MIC,,>6.25 µg/mL
Cc1cc(S(=O)(=O)Nc2n[nH]c(Nc3ccccc3)n2)c(S)cc1Cl,BACTEC,,,,H37Rv,MIC bound,,>12.5 µg/mL
CSc1nc(N)c2c3c(sc2n1)CC(C(C)(C)C)CC3,MTT / visual reading,,,,H37Rv,MIC,,25 µg/mL
CSc1ccc(-c2nc3cc(C(C)(C)C)cc(C(C)(C)C)c3o2)cc1,BACTEC,6.25 µg/mL,,,H37Rv,inhibition,,<90%
CCn1cc(C(=O)O)c(=O)c2cc([N+](=O)[O-])c3cccnc3c21,,,,,BCG,MIC90,gyrA mutation D94G,2.67 µM
CC(=O)c1c(C)n([O-])c2cc(Cl)c(Cl)cc2[n+]1=O,BACTEC,,,VERO,H37Rv,EC50,,<6.25 µg/mL
O=C(NNC(=O)c1cccc([N+](=O)[O-])c1)c1cccc([N+](=O)[O-])c1,resazurin,,,,H37Rv,MIC bound,,>6.25 µg/mL
O=c1[nH]c2c(Cl)cccc2c(O)c1N=Nc1ccccc1,resazurin,,,,H37Rv,MIC,,<6.25 µg/mL
NNC(=O)c1ccncc1,,,,,Isolate HN1993 (katG A110V mutation),MIC,,0.19 µg/mL
Cc1cc2c(cc1C)NC1C(=O)C(c3ccc(Cl)c(Cl)c3)OC1=N2,BACTEC,,,,H37Rv,MIC bound,,>12.5 µg/mL
CC(C)(C)c1ccc(C(=O)CCC(=O)NC[C@H]2CN(c3ccc(N4CCOCC4)c(F)c3)C(=O)O2)cc1,,,,,10 clinical isolates sensitive,MIC,,1–2 µg/mL
NC1[C@H]2CN(c3nc4c(cc3F)c(=O)c(C(=O)O)cn4-c3ccc(F)cc3F)C[C@@H]12,,,,,82 strains,MIC50,,>4 µg/mL
O=c1c2ccccc2c2ccccc2n1C(c1ccccc1)c1ccccc1,BACTEC,,,,H37Rv,MIC bound,,>12.5 µg/mL
Cc1c(Cl)cccc1N=Nc1c(O)c2ccc([N+](=O)[O-])cc2[nH]c1=O,resazurin,6.25 µg/mL,,,H37Rv,inhibition,,98%
CSc1ccc(C(=O)CCC(=O)NC[C@H]2CN(c3ccc(N4CCCC4)c(F)c3)C(=O)O2)cc1,,,,,ATCC 27294,MIC,,>16 µg/mL
CCOc1cc(/C=N/N=c2\scc(-c3cc4ccccc4oc3=O)n2C2CCCCC2)ccc1O,,,,,H37Rv,EC50,,<12.5 µg/mL
COC1/C=C/OC2(C)Oc3c(C)c(O)c4c(c3C2=O)C(=O)C([N+](=O)[O-])=C(NC(=O)/C(C)=C\C=C\C(C)C(O)C(C)C(O)C(C)C(OC(C)=O)C1C)C4=O,resazurin,,,VERO,H37Rv,MIC,,6.25 µg/mL
CN[C@@H]1[C@H](O[C@H]2[C@H](O[C@H]3[C@H](O)[C@@H](O)[C@H](N=C(N)N)[C@@H](O)[C@@H]3N=C(N)N)O[C@@H](C)[C@]2(O)C=O)O[C@@H](CO)[C@H](O)[C@H]1O,,,,,TN3360 (W),MIC,,>2 µg/mL
Cn1cc(NC(=O)Nc2cc(C(=O)Nc3cc(C(=O)Nc4ccc(P(=O)(O)O)c5cc(P(=O)(O)O)ccc45)n(C)c3)n(C)c2)cc1C(=O)Nc1cc(C(=O)Nc2ccc(P(=O)(O)O)c3cc(P(=O)(O)O)ccc23)n(C)c1,BACTEC,12.5 µg/mL,,,H37Rv,inhibition,,0%
CC(C)(C)c1cc(C(C)(C)C)c2oc(-c3ccn[nH]3)nc2c1,BACTEC,,,,H37Rv,MIC,,>6.25 µg/mL
COc1ccc(-c2coc3cc(O)cc(O)c3c2=O)cc1,BACTEC,12.8 µg/mL,,,H37Rv,inhibition,,63%
Cc1cccc2c(O)c(N=Nc3cccc(Cl)c3)c(=O)[nH]c12,resazurin,,,,H37Rv,MIC,,>6.25 µg/mL

5 of the rows above, restated:

structure | read by | dose | conditions | cell line | strain | endpoint | mutations | value
CC(C)=CCC1C(=O)C(CC=C(C)C)(CC=C(C)C)C(O)C(C(=O)C(C)C)C1O |  |  |  |  | Isolate L | MIC |  | 55.8 µg/mL
COc1cccc2cc(-c3cn4ccc(C)cc4n3)c(=O)oc12 | BACTEC | 6.25 µg/mL |  |  | H37Rv | inhibition |  | 8%
COc1ccc(CCC2CCc3ccccc3N2C)cc1OC |  |  |  |  | MT2 | MIC |  | >322 µg/mL
Cn1cc2c(c1-c1ccccc1)[n+](=O)c1ccccc1n2[O-] | resazurin |  |  |  | H37Rv | MIC |  | >6.25 µg/mL
CC(C)(C)c1cc(C(C)(C)C)c2oc(-c3ccccc3O)nc2c1 | BACTEC |  |  |  | H37Rv | MIC |  | >6.25 µg/mL